Results of unrelated studies side by side (data: NIAID ChemDB).

Shared fields: host cell toxicity; cell line: VERO; endpoint: CC50

An empty or dashed field is not shown. CCn: concentration that lowers growth or viability of the cells by n%. Conditions beyond the fields shown may differ between rows.

SMILES,read by,value
O=C([O-])C(F)(F)F.O=C([O-])C(F)(F)F.c1ccc2c(c1)[C@H]1[NH2+][C@@H]2CC1n1cnc2c([NH2+]C3CC3)ncnc21,MTS,>91 µM
Cc1nn(C)c2c(N)n[nH]c12,,129 µg/mL
c1ccc(-c2csc(Nc3ccncc3)n2)nc1,luminescence,>100 µM
Nc1cccc2c1[nH]c(=O)c1ccccc12,,14.17 µg/mL
CO[C@H]1/C=C/O[C@@]2(C)Oc3c(C)c(O)c4c(O)c(c(/C=N/N5CCN(C)CC5)c(O)c4c3C2=O)NC(=O)/C(C)=C\C=C\[C@H](C)[C@H](O)[C@@H](C)[C@@H](O)[C@@H](C)[C@H](OC(C)=O)[C@@H]1C,luminescence,>100 µM
Cc1ccc(NC(=O)c2cc([N+](=O)[O-])cc([N+](=O)[O-])c2)cc1Cl,,>10 µg/mL
O=c1[nH]c(=O)n([C@@H]2O[C@H](CO)[C@@H](O)[C@H]2O)cc1F,neutral red,0.82 µg/mL
c1ccc(Nc2nc(-c3ccncn3)cs2)nc1,luminescence,37 µM
CCCCN(CCCC)CCNc1ccc(C)c2sc3cc(Cl)ccc3c(=O)c12,,>2.5 µg/mL
CC(C)(C)c1ccc(C(=O)Nc2nc(-c3ccccn3)cs2)cc1,luminescence,26 µM
CC(C)(C)NCc1cc(C(C)(C)C)cc(-c2ccc(Cl)cc2)c1O,,10 µg/mL
CC(C)(C)OC(=O)N1[C@@H]2CC(n3cnc4c(NC5CC5)ncnc43)[C@H]1c1ccccc12,MTS,>119 µM
CCCCCc1cc(/C=C2/N=C(c3ccc[nH]3)C=C2OC)[nH]c1C,,<0.42 µg/mL
CC(C)(C)C(=O)N1[C@@H]2CC[C@H]1C(n1cnc3c(NC4CC4)ncnc31)C2,MTS,>135 µM
Cc1c2c(c(C)c3c1[nH]c1ccccc13)C(C#N)N(C(=O)c1ccccc1)C=C2,,0.3 µg/mL
Nc1ncnc2c1[nH]c[n+]2C1C[C@@H]2C[NH2+][C@H]1C2.O=C([O-])C(F)(F)F.O=C([O-])C(F)(F)F,MTS,>109 µM
c1ccc(-c2csc(Nc3cccnc3)n2)nc1,luminescence,>100 µM
CC(C)(C)OC(=O)N1C[C@H]2CC(n3cnc4c(Cl)ncnc43)[C@@H]1C2,MTS,53 µM
Cc1ccc(C(=O)Nc2ccc(S(=O)(=O)O)c3cc(S(=O)(=O)O)cc(S(=O)(=O)O)c23)cc1NC(=O)c1cccc(NC(=O)Nc2cccc(C(=O)Nc3cc(C(=O)Nc4ccc(S(=O)(=O)O)c5cc(S(=O)(=O)O)cc(S(=O)(=O)O)c45)ccc3C)c2)c1,neutral red,152 µg/mL
CCCCN(CCCC)CCNc1ccc(C)c2sc3c(Cl)cccc3c(=O)c12,,29.9 µg/mL
Cc1cc(=O)c2c(O)c3c(O)cc(O)c4c5c(O)cc(O)c6c(O)c7c(=O)cc(C)c8c1c2c(c34)c(c65)c78,neutral red,50 µg/mL
O=C([O-])C(F)(F)F.O=C([O-])C(F)(F)F.c1nc([NH2+]C2CC2)c2ncn(C3C[C@@H]4C[NH2+][C@H]3C4)c2n1,MTS,>100 µM
Nc1nccc2c1ncn2[C@@H]1C=C(CO)[C@@H](O)[C@H]1O,neutral red,2.6 µg/mL
N#Cc1cccc(C2=N[C@H](C(=O)OCc3ccccc3)CO2)c1,MTS / absorbance,>128 µM